{"source": "patent US10273235B2", "about": "“Compositions and methods for inhibiting β-lactamase” (LegoChem Biosciences, Inc., priority 2015, dated 2019)", "format_in_all_cases": "cell-based", "conditions_in_all_cases": "BLI fixed 4 ug/ml; incubation 19 h", "key": {"K. pneumoniae 7586": {"system": "K. pneumoniae 7586", "experiment": "BLI potentiation MIC, K. pneumoniae 7586"}, "K. pneumoniae 6839": {"system": "K. pneumoniae 6839", "experiment": "BLI potentiation MIC, K. pneumoniae 6839 (SHV-11, SHV-12, DHA-1)"}, "K. pneumoniae 89": {"system": "K. pneumoniae 89", "experiment": "BLI potentiation MIC, K. pneumoniae 89"}, "K. pneumoniae 100": {"system": "K. pneumoniae 100", "experiment": "BLI potentiation MIC, K. pneumoniae 100"}, "K. pneumoniae 23": {"system": "K. pneumoniae 23", "experiment": "BLI potentiation MIC, K. pneumoniae 23"}, "K. pneumoniae 5971(KOX)": {"system": "K. pneumoniae 5971(KOX)", "experiment": "BLI potentiation MIC, K. pneumoniae 5971(KOX)"}, "K. pneumoniae KU2": {"system": "K. pneumoniae KU2", "experiment": "BLI potentiation MIC, K. pneumoniae KU2"}}, "note": "For part of its entries the source gives two or more results. The list is limited to them. An entry can have further records. The values listed for one entry differ, and nothing given here explains why; dose, time, organism, isomer or construct need not be as stated for each record."}
{"molecule": "NCCONC(=O)[C@@H]1CC[C@@H]2CN1C(=O)N2OS(=O)(=O)O", "note": "[OP-595]", "values": [{"measurement": "MIC of Meropenem with BLI", "setting": "K. pneumoniae 7586", "result": "8 μg/mL, 2 μg/mL, 1 μg/mL"}, {"measurement": "MIC of Meropenem with BLI", "setting": "K. pneumoniae 6839", "result": "0.25 μg/mL, 0.0625 μg/mL, 0.125 μg/mL"}, {"measurement": "MIC of Meropenem with BLI", "setting": "K. pneumoniae 89", "result": "4 μg/mL, 2 μg/mL, 1 μg/mL"}, {"measurement": "MIC of Meropenem with BLI", "setting": "K. pneumoniae 100", "result": "4 μg/mL, 2 μg/mL, 1 μg/mL"}, {"measurement": "MIC of Meropenem with BLI", "setting": "K. pneumoniae 23", "result": "16 μg/mL and 2 μg/mL"}, {"measurement": "MIC of Meropenem with BLI", "setting": "K. pneumoniae 5971(KOX)", "result": "16 μg/mL, 4 μg/mL, 2 μg/mL"}, {"measurement": "MIC of LCB10-0200 with BLI", "setting": "K. pneumoniae KU2", "result": "8 μg/mL and 2 μg/mL"}]}
